Earlier results in PMC4483627 (Marine Drugs, 2015).
The match of structure and compound is tentative.

Tests used:
[1] = test system: nAChR; conditions: recovery rate, compared with Mr1.7 on α3β2; cited from earlier work
[2] = molecular target: rat nAChR α4β2 (Rattus norvegicus, UniProt P09483+P12390); conditions: read-out: IC50 α4β2; cited from earlier work

| SMILES | koff [1] | IC50 [2] |
| --- | --- | --- |
| CC(C)C[C@@H]1NC(=O)[C@H](CC(N)=O)NC(=O)[C@H](CO)NC(=O)[C@H](Cc2c[nH]cn2)NC(=O)[C@H](CCC(=O)O)NC(=O)[C@H](CC(C)C)NC(=O)[C@H](Cc2c[nH]cn2)NC(=O)[C@@H]2CSSC[C@H](NC(=O)CN)C(=O)N[C@@H](CSSC[C@@H](C(N)=O)NC1=O)C(=O)N[C@@H](CO)C(=O)N[C@@H](CC(N)=O)C(=O)N1CCC[C@H]1C(=O)N[C@@H](C(C)C)C(=O)N2 | 0.00183 s⁻¹ | – |
| CC(C)C[C@@H]1NC(=O)[C@H](C(C)C)NC(=O)[C@H](C)NC(=O)[C@@H]2CSSC[C@H](NC(=O)CN)C(=O)N[C@@H](CSSC[C@@H](C(N)=O)NC(=O)[C@H](Cc3ccc(O)cc3)NC1=O)C(=O)N[C@@H](CO)C(=O)N[C@@H]([C@@H](C)O)C(=O)N1CCC[C@H]1C(=O)N1CCC[C@H]1C(=O)N2 | 0.0109 s⁻¹ | – |
| CC[C@H](C)[C@H](N)C(=O)N[C@@H](CCCNC(=N)N)C(=O)N[C@@H](CC(=O)O)C(=O)N[C@@H](CC(C(=O)O)C(=O)O)C(=O)N[C@H]1CSSC[C@@H]2NC(=O)[C@H](C)NC(=O)[C@@H]3CCCN3C(=O)[C@H](CC(N)=O)NC(=O)[C@H](CO)NC(=O)[C@H](CSSC[C@@H](C(=O)O)NC(=O)[C@H](C(C)C)NC(=O)[C@H](Cc3c[nH]cn3)NC(=O)[C@@H]3C[C@@H](O)CN3C(=O)[C@H](CC(N)=O)NC(=O)[C@H](CC(N)=O)NC(=O)[C@H](C(C)C)NC(=O)[C@H](CCCNC(=N)N)NC2=O)NC1=O | – | 152 nM |
